Compound potency records, mixed from different reports. Data source: NIAID ChemDB in PubChem.

Common to all: growth or infection tests; agent: HIV-1; cell line: MT-2; measure: EC50

Blank or dashed fields: not listed here. ECn is the concentration giving n% inhibition of infection, replication or growth. Lines come from different laboratories, so protocols vary.

compound	strain or isolate	mutations	method	result
Cc1cn([C@H]2C=C[C@@H](CO)O2)c(=O)[nH]c1=O	IIIB		cytopathic effect	2.2 µM
COC(=O)N[C@H](C(=O)N[C@@H](Cc1ccccc1)[C@@H](O)CN(Cc1ccc(-c2ccccn2)cc1)NC(=O)[C@@H](NC(=O)OC)C(C)(C)C)C(C)(C)C	LAI		MTT	0.005 µM
CC(C)(C)OC(=O)N[C@@H](Cc1ccccc1)[C@H](O)CNC[C@@H](O)[C@H](Cc1ccccc1)NC(=O)C(C)(O)C(C)(C)C	RF		p24	0.01 µM
CC(C)(C)NC(=O)[C@@H]1C[C@@H]2CCCC[C@@H]2CN1C[C@@H](O)[C@H](Cc1ccccc1)NC(=O)[C@H](CC(N)=O)NC(=O)c1ccc2ccccc2n1	RF		p24	0.002 µM
O=C1N=S(=O)(c2ccccc2)c2ccccc2N1	IIIB		cytopathic effect / XTT	215 µM
Nc1nc(N)c2ncn([C@H]3C=C[C@@H](CO)C3)c2n1			cytopathic effect / XTT	4.7 µg/mL
CSC1N=S(=O)(c2ccccc2)c2ccccc2N1	IIIB		cytopathic effect / XTT	6.2 µM
CC(C)=CCN1Cc2cccc3[nH]c(=S)n(c23)C[C@@H]1C	R82150 (RT-L100I)	RT-L100I	cytopathic effect	>30 µM
CCCCCN1C(=O)N(Cc2ccc3[nH]nc(N)c3c2)[C@H](Cc2ccccc2)[C@H](O)[C@@H](O)[C@H]1Cc1ccccc1	RF			<0.203 µM
CC(C)CN(C[C@@H](O)[C@H](Cc1ccccc1)NC(=O)O[C@H]1CCOC1)S(=O)(=O)c1ccc(N)cc1	LAI		MTT	0.03 µM
COC(=O)N[C@H](C(=O)N[C@@H](Cc1ccccc1)[C@@H](O)CN(Cc1ccc(-c2ccccn2)cc1)NC(=O)[C@@H](NC(=O)OC)C(C)(C)C)C(C)(C)C	ROD		MTT	0.0076 µM
Nc1cccc(CN2C(=O)N(Cc3cccc(N)c3)[C@H](Cc3ccccc3)[C@H](O)[C@@H](O)[C@H]2Cc2ccccc2)c1	E (PR M46L V82V/I I84V/I)	PR-M46L V82V+I I84V+I	virus yield	<0.912 µM
Nc1ccn([C@H]2CC[C@@H](CO)O2)c(=O)n1			cytopathic effect / XTT	0.29 µg/mL
CCCCCCCCCCCCCCCCOCCCOP(=O)(O)COCCn1ccc(N)nc1=O	LAI		p24	>10 µM
Cc1ccnc2c1NC(=O)c1cccnc1N2C1CC1	IIIB		cytopathic effect	0.03 µM
COC(=O)N[C@H](C(=O)N[C@@H](Cc1ccccc1)[C@@H](O)CN(Cc1ccc(-c2ccccn2)cc1)NC(=O)[C@@H](NC(=O)OC)C(C)(C)C)C(C)(C)C	LAI			0.005 µM
Cc1c(Sc2ccccc2)n(COCCO)c(=O)[nH]c1=O	R82150 (RT-L100I)	RT-L100I	cytopathic effect	19.5 µM
CC(C)CN(C[C@@H](O)[C@H](Cc1cc(F)cc(F)c1)NC(=O)O[C@H]1CCO[C@H]2OCC[C@H]21)S(=O)(=O)c1ccc2nc(NC(C)C)sc2c1	LAI		MTT	0.0001 µM
CCCCCCCCCCCCCCCCOCCCOP(=O)(O)COCCn1cnc2c(NC3CC3)nc(N)nc21	LAI		p24	<0.00001 µM
CCOC(=O)c1cccc(CN2C(=O)N(CCCCCO)[C@H](Cc3ccccc3)[C@H](O)[C@@H](O)[C@H]2Cc2ccccc2)c1				<0.365 µM
Nc1n[nH]c2ccc(CN3C(=O)N(Cc4ccc5ccccc5c4)[C@H](Cc4ccccc4)[C@H](O)[C@@H](O)[C@H]3Cc3ccccc3)cc12	RF	PR-S184V		<0.43 µM
CCCCCCCCCCCCCCCCOCCCOP(=O)(O)CO[C@H](CO)Cn1cnc2c(N)nc(N)nc21	LAI		p24	0.04 µM
O=S1(c2cccc(Cl)c2)=NC(=S)Nc2ccc(Cl)cc21	IIIB		cytopathic effect / XTT	0.03 µM
O=c1[nH]c(=O)n(CCOCP(=O)(O)O)cc1F	LAI		p24	>100 µM
CC(C)Nc1n[nH]c2ccc(CN3C(=O)N(Cc4ccc5[nH]nc(NC(C)C)c5c4)[C@H](Cc4ccccc4)[C@H](O)[C@@H](O)[C@H]3Cc3ccccc3)cc12	RF			<0.024 µM
CC(C)OC(=O)OCOP(=O)(CO[C@H](C)Cn1cnc2c(N)ncnc21)OCOC(=O)OC(C)C	SUM9 (WT)		p24	0.02 µM
O=c1[nH]c(=O)n(C[C@@H](CO)OCP(=O)(O)O)cc1F	LAI		p24	>100 µM
CCCNc1n[nH]c2ccc(CN3C(=O)N(Cc4ccc5[nH]nc(NCCC)c5c4)[C@H](Cc4ccccc4)[C@H](O)[C@@H](O)[C@H]3Cc3ccccc3)cc12	RF			<0.04 µM
O=C(NCCCCCN1C(=O)N(CCCCCNC(=O)c2ccncc2)[C@H](Cc2ccccc2)[C@H](O)[C@@H](O)[C@H]1Cc1ccccc1)c1ccncc1				<9.903 µM
CC(C)[C@H](NC(=O)N(C)Cc1ccccn1)C(=O)N[C@@H](Cc1ccccc1)[C@H](O)[C@H](O)[C@H](Cc1ccccc1)NC(=O)[C@@H](NC(=O)N(C)Cc1ccccn1)C(C)C	RF		p24	0.04 µM
O=C(NCCCCCN1C(=O)N(CCCCCNC(=O)c2cccc(F)c2)[C@H](Cc2ccccc2)[C@H](O)[C@@H](O)[C@H]1Cc1ccccc1)c1cccc(F)c1				<8.773 µM
Nc1nc(N)c2ncn([C@H]3CC[C@@H](CO)C3)c2n1			cytopathic effect / XTT	16.7 µg/mL
Cc1cn([C@H]2C[C@H](N=[N+]=[N-])[C@@H](CO)O2)c(=O)[nH]c1=O	112-2		MTT / p24	0.036 µg/mL
Nc1ccn(CCOCP(=O)(O)O)c(=O)n1	LAI		p24	>100 µM
O=C1N(CCCCO)[C@H](Cc2ccccc2)[C@H](O)[C@@H](O)[C@@H](Cc2ccccc2)N1CCCCO				<22.7 µM
CC(C)(C)NC(=O)[C@@H]1C[C@@H]2CCCC[C@@H]2CN1C[C@H](O)[C@H](Cc1ccccc1)NC(=O)[C@H](CC(N)=O)NC(=O)c1ccc2ccccc2n1	ROD		MTT	0.0032 µM

For reference, 2 entries again:

compound,strain or isolate,mutations,method,result
Nc1cccc(CN2C(=O)N(Cc3cccc(N)c3)[C@H](Cc3ccccc3)[C@H](O)[C@@H](O)[C@H]2Cc2ccccc2)c1,E (PR M46L V82V/I I84V/I),PR-M46L V82V+I I84V+I,virus yield,<0.912 µM
CCOC(=O)c1cccc(CN2C(=O)N(CCCCCO)[C@H](Cc3ccccc3)[C@H](O)[C@@H](O)[C@H]2Cc2ccccc2)c1,,,,<0.365 µM